Measured values from several laboratories, pooled; numbers as filed in NIAID ChemDB.

Common to all: whole-cell or culture tests; organism: HIV-1

Neighbouring rows are from separate reports. Blank or dashed fields: not listed here. ECn: concentration that inhibits the pathogen or its effect by n%.

smiles | measure | strain or isolate | mutations | read by | setting | cells | value
C=CCOC1(C(F)(F)F)OC(=O)Nc2ccc(Cl)cc21 | EC50 |  |  |  |  |  | <0.0039 µM
Cc1ncc(-c2ccc(OCC3CC3)cn2)c(N2CCC(C)(C)CC2)c1[C@H](OC(C)(C)C)C(=O)O | EC50 | NL4-3 |  | luminescence |  | MT-2 | 0.0016 µM
Cc1ccc(-c2ccc(NC(=O)N3CCC4(CCO4)CC3)cc2)cc1 | EC50 | CH119 |  | luminescence | pseudotyped | TZM-bl | >30 µM
COc1ccc(-c2c(C)nc3c(N4CC[C@H](O)C4)cc(C)nn23)cc1OC | EC50 |  |  | p24 |  | H9 | 0.5 µM
CC(C)=CCOc1cc(NC(=S)c2ccoc2C)ccc1Cl | EC50 | IIIB |  | cytopathic effect / XTT |  | CEM + CEM-SS | 0.009 µM
COc1ccc(-c2c(C)nc3c(N4CC[C@@H](n5cc(-c6ccccc6)nn5)C4)cc(C)nn23)cc1OC | EC50 |  |  | p24 |  | H9 | 0.3 µM
COC[C@@H](c1ccc(C(F)(F)F)cc1)N1CCN(C2(C)CCN(C(=O)c3c(C)ncnc3C)CC2)C[C@@H]1C | EC50 | S | G514V V535M |  |  | PBMC | 0.00084 µM
CC(=O)N[C@@H]1CCN(c2cc(C)nn3c(-c4ccc(F)cc4)c(C)nc23)C1 | EC50 |  |  | p24 |  | H9 | 2 µM
COc1ccc(N(C)C(=O)[C@H](Cc2cc(F)cc(F)c2)NC(=O)Cn2c(=O)n(CC(=O)N[C@@H](Cc3cc(F)cc(F)c3)C(=O)N(C)c3ccc(OC)cc3)c3cc(F)ccc32)cc1 | EC50 | NL4-3 |  | luciferase |  | MT-2 | 0.03 µM
Nc1nc(=O)n([C@H]2C=C[C@@H](CO)O2)cc1F | EC50 | BRU-184V |  | PCR |  | PBMC | <0.21 µM
COc1ccc(-n2cnc3c(N4CC[C@@H](NC(C)=O)C4)nc(C)nc32)cc1OC | EC50 | RF |  | p24 |  | H9 | >100 µM
O=C1c2c(O)c(=O)n(C3CCN(CC4CC4)CC3)c(=O)n2CCN1Cc1ccc(F)cc1 | EC95 |  |  | p24 |  | MT-4 | <10 µM
O=C1Nc2ccc(Cl)cc2C(OCc2cccnc2)(C(F)(F)F)O1 | EC50 |  |  |  |  |  | <0.07527 µM
Cc1ccc(OCCOc2ccc(-c3cnc(C)c([C@H](OC(C)(C)C)C(=O)O)c3N3CCC(C)(C)CC3)cn2)cc1F | EC50 | NL4-3 |  | luminescence |  | MT-2 | 0.0059 µM
CN(C(=O)[C@H](Cc1cc(F)cc(F)c1)NC(=O)NS(=O)(=O)N[C@@H](Cc1cc(F)cc(F)c1)C(=O)N(C)c1ccc2c(c1)ncn2C)c1ccc2c(c1)ncn2C | EC50 | NL4-3 |  | luciferase |  | MT-2 | 6.15 µM
C[C@H](Cn1cnc2c(N)ncnc21)OCP(=O)(O)O | EC50 | Clinical isolate | M184V | recombinant virus assay |  | MT-2 | 0.0018 µM
CN(C(=O)[C@H](Cc1cc(F)cc(F)c1)NC(=O)c1ccc(F)c(C(=O)N[C@@H](Cc2cc(F)cc(F)c2)C(=O)N(C)c2ccc(C3CC3)cc2)c1)c1ccc(C2CC2)cc1 | EC50 | NL4-3 |  | luciferase |  | MT-2 | 0.02 µM
C=CCOC1(C(F)(F)F)OC(=O)Nc2ccc(F)c(F)c21 | EC50 |  | RT-K103N |  |  |  | <1.617 µM
Cc1ncc(-c2ccc(OC[C@@H]3CCCO3)cn2)c(N2CCC(C)(C)CC2)c1[C@H](OC(C)(C)C)C(=O)O | EC50 | NL4-3 |  | luminescence |  | MT-2 | 0.0017 µM
[2H]c1nc2cc(N(C)C(=O)[C@H](Cc3cc(F)cc(F)c3)NC(=O)NS(=O)(=O)N[C@@H](Cc3cc(F)cc(F)c3)C(=O)N(C)c3ccc4sc([2H])nc4c3)ccc2s1 | EC50 | NL4-3 |  | luciferase |  | MT-2 | 0.02 µM
Cc1ncc(-c2ccc(NCCOc3ccc(F)cc3F)cn2)c(N2CCC(C)(C)CC2)c1[C@H](OC(C)(C)C)C(=O)O | EC50 | NL4-3 |  | luminescence |  | MT-2 | 0.0016 µM
COc1ccc(-c2scc3c(N4CC[C@@H](NC(C)=O)C4)nc(Cl)nc23)cc1OC | EC50 |  |  | p24 |  | H9 | >100 µM
CC(C)=CCOc1cc(NC(=S)c2ccsc2C)ccc1Cl | EC50 | IIIB |  | cytopathic effect / XTT |  | U-937 | 0.005 µM
Cc1cn([C@H]2C=C[C@@H](CO)O2)c(=O)[nH]c1=O | EC50 | RD 03-RT-41L 210W C215Y K65R Recombinant |  | cytopathic effect / MTT |  | MT-4 | 0.75 µM
C=C1CN(S(=O)(=O)c2ccc(C)cc2)CCCN(Cc2ccccc2)CCCN(S(=O)(=O)c2ccc(C)cc2)C1 | EC50 | IIIB |  | cytopathic effect |  | MT-4 | 0.3 µM
COc1ccc(-c2c(C)nc3c(N4CC[C@@H](NS(=O)(=O)c5ccc(C(F)(F)F)cc5)C4)cc(C)nn23)cc1OC | EC50 |  |  | p24 |  | H9 | 0.2 µM
O=C1Nc2ccc(Cl)cc2C(C#Cc2ccccn2)(C(F)(F)F)O1 | EC50 |  |  |  |  |  | <0.00539 µM
CC(C)NC(=S)N(C)CCC1CN(Cc2ccc(F)cc2)C(=O)c2c(O)c(=O)n(C(C)C)c(=O)n21 | EC50 |  |  | p24 |  | MT-4 | <10 µM
O=C1Nc2ccc(Cl)cc2C(C#Cc2ccncc2)(C(F)(F)F)O1 | EC50 |  |  |  |  |  | <0.1021 µM
COc1ccc(OCCN(C)c2ccc(-c3cnc(C)c([C@H](OC(C)(C)C)C(=O)O)c3N3CCC(C)(C)CC3)cn2)cc1 | EC50 | NL4-3 |  | luminescence |  | MT-2 | 0.002 µM
C#C[C@@]1(CO)C=C[C@H](n2cc(C)c(=O)[nH]c2=O)O1 | EC50 | Clinical isolate | M184V | recombinant virus assay |  | MT-2 | 0.7429 µM
COc1ccc(N(C)C(=O)[C@H](Cc2ccccc2)NC(=O)NS(=O)(=O)N[C@H](Cc2ccccc2)C(=O)N(C)c2ccc(OC)cc2)cc1 | EC50 | NL4-3 |  | luciferase |  | MT-2 | 0.47 µM
O=C1c2c(O)c(=O)n(-c3ccc(N4CCCCC4)cc3)c(=O)n2CCN1Cc1ccc(F)cc1 | EC50 |  |  | p24 |  | MT-4 | <10 µM
CCN(C(=O)[C@H](Cc1cc(F)cc(F)c1)NC(=O)CN1c2ccccc2N(CC(=O)N[C@@H](Cc2cc(F)cc(F)c2)C(=O)N(CC)c2ccc(NC(=O)OC)cc2)S1(=O)=O)c1ccc(NC(=O)OC)cc1 | EC50 | NL4-3 |  | luciferase |  | MT-2 | 0.72 µM
O=C1c2c(O)c(=O)n(C3CCC(O)CC3)c(=O)n2CCN1Cc1ccc(F)cc1 | EC95 |  |  | p24 |  | MT-4 | <10 µM
CN(C(=O)[C@H](Cc1cc(F)cc(F)c1)NS(=O)(=O)CS(=O)(=O)N[C@@H](Cc1cc(F)cc(F)c1)C(=O)N(C)c1ccc2scnc2c1)c1ccc2scnc2c1 | EC50 | NL4-3 |  | luciferase |  | MT-2 | 0.08 µM
Cc1ncc(-c2ccc(OCCOc3ccc(F)cc3Cl)nc2)c(N2CCC(C)(C)CC2)c1[C@H](OC(C)(C)C)C(=O)O | EC50 | NL4-3 |  | luminescence |  | MT-2 | 0.0024 µM
CCN(C(=O)[C@H](Cc1cc(F)cc(F)c1)NC(=O)CN1c2ccccc2N(CC(=O)N[C@@H](Cc2cc(F)cc(F)c2)C(=O)N(CC)c2ccc3oc(=O)n(CC)c3c2)S1(=O)=O)c1ccc2oc(=O)n(CC)c2c1 | EC50 | NL4-3 |  | luciferase |  | MT-2 | 2.13 µM
NC(=O)CCNC(=O)c1ccccc1SCc1ccc(OP2(=O)OCc3ccccc3O2)cc1 | EC50 | RF |  | XTT |  | CEM | 0.89 µM

For reference, 3 entries again:

smiles | measure | strain or isolate | mutations | read by | setting | cells | value
COc1ccc(N(C)C(=O)[C@H](Cc2ccccc2)NC(=O)NS(=O)(=O)N[C@H](Cc2ccccc2)C(=O)N(C)c2ccc(OC)cc2)cc1 | EC50 | NL4-3 |  | luciferase |  | MT-2 | 0.47 µM
O=C1c2c(O)c(=O)n(C3CCC(O)CC3)c(=O)n2CCN1Cc1ccc(F)cc1 | EC95 |  |  | p24 |  | MT-4 | <10 µM
COc1ccc(OCCN(C)c2ccc(-c3cnc(C)c([C@H](OC(C)(C)C)C(=O)O)c3N3CCC(C)(C)CC3)cn2)cc1 | EC50 | NL4-3 |  | luminescence |  | MT-2 | 0.002 µM